Share of PSTVd loop 6 variants by leaf site

The pool varies loop 6 of the PSTVd intermediate strain in the pattern UNNNCGNNNG; wild type is UGACCGCGAG (upper and lower strand joined, each 5' to 3', the first 5 letters being the upper strand, closing pairs included).

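Three N. benthamiana plants were inoculated with the whole mutant pool. Progeny were sequenced from the inoculated region (day 5), the margin of the inoculated leaf (day 10) and systemic leaves (day 12).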

Numbers give reads per thousand; 0 = not seen among the reads, higher = more abundant.
Each value is the mean of three plants.
"Pool" is the share in the plasmid pool used as inoculum, on the same scale.
The inoculated region was read from the minus strand, the other sites from the plus strand.
IR is the inoculated region, LM the leaf margin, Sys the systemic leaves.

UAAUCGGAGG (pool 0.261) gave IR 0.0833; LM 0.00773; Sys 0. UCUCCGACUG (pool 0.288) gave IR 0.131; LM 0.00773; Sys 0. UGUUCGCGUG (pool 0.170) read IR 0.0957; LM 0.0176; Sys 0. For GGACCGCAAG (pool 0.0131) the result was IR 0.641; LM 0.0338; Sys 0.0466. With UCUGCGCCUG (pool 0.379) the assay gave IR 0.0590; LM 0; Sys 0.0889.

With UUUACGUUGG (pool 0.248) the assay gave IR 0.100; LM 0; Sys 0. UUUACGAAUG (pool 0.275) gave IR 0.102; LM 0.0155; Sys 0. UUGUCGUUAG (pool 0.536) gave IR 0.0831; LM 0; Sys 0.00684. For UAGUCGUUAG (pool 0.301) the result was IR 0.113; LM 0.00773; Sys 0. For UUGUCGUAAG (pool 0.196) the result was IR 0.113; LM 0.0169; Sys 0.

For UGACCGAUGG (pool 0.458) the result was IR 0.340; LM 2.42; Sys 0.108. With UCGACGUAGG (pool 0.144) the assay gave IR 0.0782; LM 0.00920; Sys 0. With UAUACGUAAG (pool 0.288) the assay gave IR 0.0533; LM 0.00773; Sys 0. With UGAGCGUCCG (pool 0.222) the assay gave IR 0.101; LM 0.00773; Sys 0. With GGACCGAGAG (pool 0.0131) the assay gave IR 0.664; LM 0.104; Sys 0.0128.

UGAUCGCGCG (pool 0.209) read IR 0.0836; LM 0; Sys 0. With UAUCCGUUCG (pool 0.222) the assay gave IR 0.107; LM 0.00920; Sys 0. For UAGCCUCGAG (pool 0.0131) the result was IR 0.500; LM 0.0783; Sys 0.0401. UUUACGGCUG (pool 0.340) gave IR 0.114; LM 0; Sys 0. For UUAUCGGUUG (pool 0.431) the result was IR 0.0769; LM 0.0155; Sys 0.

For UCACCUGUCC (pool 0.0131) the result was IR 0; LM 0.00920; Sys 0.00673. UCCGCGAUGG (pool 0.314) gave IR 0.125; LM 0.00920; Sys 0. For UAUUCGAUAG (pool 0.170) the result was IR 0.119; LM 0.0556; Sys 0. UUCGCGCCGG (pool 0.235) read IR 0.114; LM 0.00773; Sys 0. For UGUCCGCUCG (pool 0.275) the result was IR 0.0840; LM 0.00773; Sys 0.

UCUGCGACUG (pool 0.405) read IR 0.0656; LM 0.00920; Sys 0. With GUACCGGUUG (pool 0.0131) the assay gave IR 0; LM 0; Sys 0. UCUCCGAAUG (pool 0.327) gave IR 0.107; LM 0; Sys 0. UUGGCGAGCG (pool 0.431) gave IR 0.119; LM 0.00920; Sys 0. UAUACGUAGG (pool 0.340) gave IR 0.101; LM 0; Sys 0.

UUUGCGAUAG (pool 0.314) read IR 0.0415; LM 0.0155; Sys 0. For UUCCCGCUGG (pool 0.209) the result was IR 0.0590; LM 0; Sys 0. UAUCCGCUUG (pool 0.275) read IR 0.0828; LM 0.00920; Sys 0. UCACCGAUUG (pool 0.235) read IR 0.0654; LM 0.0155; Sys 0. UACGCGUGUG (pool 0.327) gave IR 0.0594; LM 0; Sys 0.

UGAUCGGAGG (pool 0.144) read IR 0.0721; LM 0; Sys 0. UUAACGCGGG (pool 0.261) read IR 0.101; LM 0; Sys 0. UGGACGUGCG (pool 0.144) gave IR 0.0886; LM 0; Sys 0. UUCACGAGGG (pool 0.196) gave IR 0.137; LM 0; Sys 0. UCCUCGAAUG (pool 0.327) gave IR 0.113; LM 0; Sys 0.

Excerpt, the final 4 entries:

sequence	pool	IR	LM	Sys
UUAACGCGGG	0.261	0.101	0	0
UGGACGUGCG	0.144	0.0886	0	0
UUCACGAGGG	0.196	0.137	0	0
UCCUCGAAUG	0.327	0.113	0	0

With 36,220-57,551 reads a sample, very low values are single reads.
Sequences that differ at fixed positions probably stem from PCR or sequencing errors, and defective variants can be carried along by functional ones.
Wild type was 20.7 per thousand in the pool and the most common sequence in every sample (inoculated region 195, 198, 203; leaf margin 629, 591, 734; systemic leaves 942, 870, 868).

Data from the supplement of Wu et al. 2024, doi:10.1371/journal.ppat.1012142.